In PMC5855875 (Chemical Science, 2017):

Assay: NMR titration with geranyl pyrophosphate (lipid II mimic)
Format: binding
Description: In order to evaluate target binding, we have performed the lipid II TLC binding assay[2] with Ala10-teixobactin. This assay provides qualitative binding data of Ala10-teixobactin with lipid II. […] Therefore, in order better understand the target binding of teixobactin analogues in a quantitative manner, extensive NMR studies (Fig. 6) on Ala10-teixobactin and geranyl pyrophosphate were performed.
This can occur due to intermediate exchange on the NMR time-scale, and therefore cooperative binding is not an obvious choice.

Compound `CC[C@H](C)[C@H](NC(=O)[C@@H](Cc1ccccc1)NC)C(=O)N[C@@H](CO)C(=O)N[C@H](CCC(N)=O)C(=O)N[C@@H](C(=O)N[C@H](C(=O)N[C@@H](CO)C(=O)N[C@H]1C(=O)N[C@@H](C)C(=O)N[C@@H](C)C(=O)N[C@@H]([C@@H](C)CC)C(=O)O[C@H]1C)[C@@H](C)CC)[C@@H](C)CC` [Compound 8, Ala10-teixobactin] (H-[dNMeF]IS[dQ][d(aIle)]IS[dT]AAI; ester 8-C) has a Hill coefficient (2 Ile Hα) of 2.1, a Hill coefficient (3 Ser Hα) of 2.0 and a Hill coefficient (4 D-Gln Hα) of 2.2. For the same compound, the Hill coefficient (5 D-Ile Hα) was 1.7, the Hill coefficient (9 Ala Hα) was 2.1 and the Hill coefficient (11 Ile Hα) was 1.5. The Hill coefficient (all N-terminal residues) was about 2.

Bridge positions count the residues as written; N and C are the ends. Square brackets hold non-standard residues; d marks the D form. Peptide text beside a SMILES is read from it. d(aIle) = CC[C@H](C)[C@@H](N)C(=O)O; dNMeF = CN[C@H](Cc1ccccc1)C(=O)O
